Measured values from several laboratories, pooled; numbers as filed in NIAID ChemDB.

Common to all: tests in culture; organism: Varicella zoster virus

ECn: concentration that inhibits the pathogen or its effect by n%. Percent inhibition refers to the dose given; in toxicity tests it is the harm to the cells. An empty or dashed field is not shown. Neighbouring rows are from separate reports.

smiles	strain	cells	method	measure	dose	result
COc1cc(OC)c(NC(=S)Nc2ccc(NC(C)=O)cc2)cc1Cl	ELLEN	HFF	ELISA	inhibition	10 µg/mL	2%
Nc1ccn(C[C@@H](CO)OCP(=O)(O)O)c(=O)n1				MIC		0.2 µg/mL
CCCCCCCCc1cc2cn([C@H]3C[C@H](F)[C@@H](CO)O3)c(=O)nc2o1	YS (TK-)			EC50		>200 µM
O=c1[nH]c(=O)n([C@@H]2O[C@H](CO)[C@@H](O)[C@@H]2O)cc1/C=C/Br	Kawaguchi acyclovir-resistant mutant A6		plaque count	EC50		0.000113 µg/mL
Nc1ncnc2c1ncn2C[C@@H](CO)OCP(=O)(O)O				MIC		0.02 µg/mL
O=c1[nH]c(=O)n([C@@H]2O[C@H](CO)[C@@H](O)[C@@H]2O)cc1/C=C/Cl	Kawaguchi acyclovir-resistant mutant A7		plaque count	EC50		0.000413 µg/mL
Nc1ccn([C@@H]2O[C@H](CO)[C@@H](O)[C@@H]2O)c(=O)n1				MIC		4.4 µg/mL
Cc1cn([C@@H]2O[C@H](CO)[C@@H](O)[C@@H]2O)c(=O)[nH]c1=O	Ohtomo	HELF	plaque count	inhibition	0.01 µg/mL	94%
O=C(NCc1ccc(Cl)cc1)c1c[nH]c2ccc(CCCO)cc2c1=O	DYE		plaque count	EC50		0.1 µM
COc1cc(OC)c(NC(=S)Nc2ccc(NC(C)=O)cc2C#N)cc1Cl	ELLEN	HFF	ELISA	inhibition	10 µg/mL	3%
COc1cc(NC(=O)c2ccccc2F)ccc1NC(=S)NC1=CC(Cl)C(C)(OC)C=C1	ELLEN	HFF	ELISA	inhibition	10 µg/mL	10%
Cc1cn([C@@H]2O[C@H](CO)[C@@H](O)[C@@H]2F)c(=O)nc1N	Asahikawa	HELF	plaque count	inhibition	0.001 µg/mL	14%
Cn1cc(C(=O)NCc2ccc(Cl)cc2)c(=O)c2cc(CN3CCOCC3)ccc21	CO varicella isolate	HFF	plaque count	inhibition	15 µM	90%
O=c1[nH]c(=O)n([C@@H]2O[C@H](CO)[C@@H](O)[C@@H]2O)cc1/C=C/Cl	OKA	HELF	plaque count	inhibition	0.0001 µg/mL	7%
Nc1nc(N)c2ncn(CCOCP(=O)(O)O)c2n1	Oka PFA-resistant/B	HEL	cytopathic effect	EC50		13.2 µM